# Results reported in PubChem BioAssay AID588335 (The Scripps Research Institute Molecular Screening Center, 2011).
# This is a selection; strong and weak results do not stand in their true shares. Activity calls are given as the source filed them. No stated cut-off is given here; in the data, active means inhibition above about 30%; inactive means the rest.
# Experiment: inhibition of GDH and TPI enzymes – biochemical, absorbance, full deck, artefact control for M. tuberculosis FBA inhibitor project, primary screen (AID 588335);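 further: 0% = DMSO wells and 100% = wells lacking the enzyme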
# Conditions: GDH-TPI coupled enzyme counterscreen, NADH absorbance; at 4.8 µM; stronger effect = higher value
row,Compound,inhibition
1,CCN1CCC(Nc2ccc(Cl)cc2)CC1,inactive: -4.2%
2,N#CC1(Nc2ccccc2)CCN(CCc2ccccc2)CC1,inactive: -7.26%
3,CSc1ccc(C(=O)NCC2(N3CCOCC3)CCCCC2)cc1,inactive: 8.28%
4,O=C(NCC1(N2CCCCC2)CCCCC1)c1cccc([N+](=O)[O-])c1,inactive: -0.63%
5,O=C(NCC1(N2CCCCC2)CCCCC1)c1ccc(OC(F)F)cc1,inactive: -5.45%
6,COc1cc(C(=O)NCC2(N3CCCCC3)CCCCC2)ccc1OC(F)F,inactive: 8.96%
7,O=C(NCC1(N2CCOCC2)CCCCC1)c1cc(=O)[nH]c2ccccc12,inactive: -0.85%
8,CN1CCN(CCOC(=O)C(O)(c2ccccc2)c2ccccc2)CC1,inactive: -8.24%
9,CC(C)c1ccc(C(=O)NCC2(N3CCOCC3)CCCCC2)cc1,inactive: 0.34%
10,COc1ccc(NC2CCN(C(=O)OC(C)(C)C)CC2)cc1,inactive: -2.2%
11,O=C(NCC1(N2CCCCC2)CCCCC1)c1cccc(C(F)(F)F)c1,inactive: -0.75%
12,COc1cc(OC)c(C(=O)NCC2(N(C)C)CCCCC2)cc1OC,inactive: 6.44%
13,O=C(NCC1(N2CCOCC2)CCCCC1)c1cc(F)c(F)cc1Cl,inactive: 1.27%
14,CC(C)c1ccc(NC2CCN(C(=O)OC(C)(C)C)CC2)cc1,inactive: -5.26%
15,COc1ccc(CN(CCCl)CCCl)cc1Cl,inactive: 6.37%
16,CN(C)c1cccc(C(=O)NCC2(N3CCCCC3)CCCCC2)c1,inactive: -3.13%
17,Cc1ccc(C(=O)NCC2(N(C)C)CCCCC2)o1,inactive: -2.68%
18,CCCOc1ccc(C(=O)NCC2(N(C)C)CCCCC2)cc1OC,inactive: -0.42%
19,CN1CCC(Nc2cccc(F)c2)CC1,inactive: -15.5%
20,O=C(NCC1(N2CCCCC2)CCCCC1)c1cncc(Br)c1,inactive: -5.45%
21,CSc1ccccc1C(=O)NCC1(N2CCCCC2)CCCCC1,inactive: -3.27%
22,Cc1cccc(NC2(C#N)CCN(Cc3ccccc3)CC2)c1,inactive: -4.74%
23,COc1ccc(C(=O)NCC2(N3CCCCC3)CCCCC2)cc1,inactive: 11.9%
24,CC(C)(C)OC(=O)N1CCC(N(C(=O)c2ccccc2)c2ccc(F)cc2)CC1,inactive: -1.43%
25,COc1ccc(C(=O)NCC2(N3CCCCC3)CCCCC2)c(OC)c1OC,inactive: -0.94%
26,O=C(NCC1(N2CCCCC2)CCCCC1)c1ccc(=O)[nH]c1,inactive: -2.09%
27,O=C(NCC1(N2CCCCC2)CCCCC1)c1cccs1,inactive: 11.8%
28,N#CC1(Nc2ccccc2)CCN(Cc2ccccc2)CC1,inactive: -8.84%
